Fitness effects across NS2B and the NS3 protease domain of Zika virus

The scanned region of Zika virus MR766 is shown below (positions 1-308): NS2B is 2-131, NS3 begins at position 132.
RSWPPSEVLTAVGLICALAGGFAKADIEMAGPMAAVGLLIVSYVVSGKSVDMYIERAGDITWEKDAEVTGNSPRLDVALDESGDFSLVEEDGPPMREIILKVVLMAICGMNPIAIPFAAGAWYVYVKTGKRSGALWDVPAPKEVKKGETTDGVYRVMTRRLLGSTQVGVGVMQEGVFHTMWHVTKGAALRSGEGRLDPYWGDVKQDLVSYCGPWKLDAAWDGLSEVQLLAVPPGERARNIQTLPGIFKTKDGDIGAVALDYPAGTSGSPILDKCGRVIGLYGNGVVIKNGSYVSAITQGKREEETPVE

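Pools of virus carrying all single amino acid changes were selected for growth in Huh-7.5 cells. Sequencing of three replicate libraries (two for positions 207-308) was averaged into one effect per change. The study looked for pockets that tolerate few changes, as a guide for inhibitor design.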

Scale: log2 effect, wild type = 0; the lower, the more harmful to the virus. Rows are sites, columns the new residue; wt marks the wild-type residue. Position 1 still belongs to NS2A. In the paper, -1 or higher counts as tolerated. Stop codons (*) centre on -7 and mark the level of dead virus. Six mutants with high scores were retested singly and none clearly outgrew wild type, so positive values are not proof of better growth. The region was split into three libraries (1-103, 104-206, 207-308).

site,G,A,V,L,I,M,F,W,Y,C,P,S,T,N,Q,D,E,K,R,H,*
G186,wt,-2.44,-6.31,-6.54,-4.54,-5.29,-4.58,-5.47,-4.55,-2.74,-5.91,-6.37,-5.63,-4.22,-4.84,-5.07,-5.44,-4.74,-6.47,-4.40,-7.21
A187,-4.19,wt,-5.17,-6.84,-4.54,-5.04,-5.16,-5.39,-4.62,-1.58,-6.30,-2.38,-4.56,-4.29,-4.77,-3.24,-5.42,-4.87,-6.51,-4.72,-6.81
A188,-3.25,wt,-5.68,-4.78,-4.55,-4.57,-5.39,-4.70,-5.15,-2.72,-5.63,-1.96,-4.64,-5.07,-4.71,-5.06,-3.81,-4.85,-5.70,-5.48,-6.38
L189,-5.36,-5.25,-2.16,wt,-1.64,-3.00,-4.10,-4.68,-3.58,-4.43,-5.01,-6.01,-5.77,-4.06,-6.41,-4.10,-5.38,-5.75,-5.95,-5.42,-7.75
R190,-3.61,-4.91,-5.14,-7.00,-4.87,-6.42,-4.34,-5.45,-2.05,-4.26,-5.93,-3.12,-2.22,-2.58,-4.90,-3.71,-5.30,-0.89,wt,-2.68,-7.40
S191,-5.74,-3.40,-2.19,-3.86,-3.49,-5.04,-4.59,-5.06,-4.49,-4.63,-5.59,wt,-2.76,-1.37,-4.47,-2.81,-4.28,-5.04,-4.96,-2.63,-7.09
G192,wt,-2.84,-7.02,-4.77,-5.13,-4.11,-5.46,-5.98,-4.95,-2.53,-6.26,-3.96,-6.23,-3.40,-3.53,-4.49,-4.02,-2.36,-4.66,-3.96,-7.76
E193,-0.80,-1.16,-1.85,-1.25,-2.35,-1.87,-4.33,-5.21,-2.41,-0.43,-0.10,-0.69,-0.46,-0.27,-0.57,0.49,wt,-2.15,-2.33,-0.36,-6.56
G194,wt,-4.75,-7.06,-7.27,-5.78,-5.42,-5.79,-5.80,-5.51,-4.84,-7.14,-6.44,-6.85,-5.66,-5.65,-5.58,-4.99,-5.51,-7.38,-6.34,-7.48
R195,-5.66,-6.18,-6.46,-7.32,-3.35,-6.21,-5.40,-5.66,-5.48,-5.69,-6.16,-6.39,-7.03,-5.59,-6.02,-5.25,-5.67,-5.94,wt,-5.57,-8.11
L196,-6.12,-6.30,-2.29,wt,-0.16,-2.36,-4.61,-5.37,-4.65,-1.90,-6.61,-6.71,-6.87,-5.03,-6.34,-4.16,-5.03,-5.82,-7.11,-5.33,-7.66
D197,-3.23,-2.13,-0.51,-7.15,-0.86,-4.49,-6.44,-6.46,-3.72,-0.89,-2.65,-1.22,-1.83,-0.64,-5.27,wt,-5.28,-6.60,-6.73,-4.65,-8.59
P198,-7.37,-7.35,-2.94,-1.50,-4.90,-6.62,-6.71,-6.39,-6.84,-4.80,wt,-8.14,-2.39,-7.20,-3.54,-6.61,-6.41,-6.55,-8.07,-7.10,-8.36
Y199,-5.14,-1.22,-1.36,-5.62,-1.52,-2.35,-1.22,-1.07,wt,-0.73,-6.16,-2.30,-1.92,-3.05,-2.48,-4.18,-4.75,-1.00,-2.88,0.10,-6.11
W200,-7.50,-7.17,-7.44,-7.58,-6.24,-6.72,-6.09,wt,-5.25,-6.43,-7.63,-7.71,-7.43,-5.91,-6.81,-6.12,-6.58,-6.80,-8.29,-6.12,-8.42
G201,wt,-6.99,-7.02,-7.31,-4.90,-5.94,-5.30,-6.71,-5.64,-5.47,-7.05,-7.12,-6.85,-5.24,-6.48,-5.49,-6.26,-5.97,-7.16,-5.13,-8.04

38 of these entries, quoted again:

* A188I -> -4.55
* A188Q -> -4.71
* A187N -> -4.29
* A187Q -> -4.77
* W200G -> -7.50
* R190* -> -7.40
* D197E -> -5.28
* G186E -> -5.44
* L189P -> -5.01
* W200L -> -7.58
* W200* -> -8.42
* G194V -> -7.06
* Y199L -> -5.62
* R195K -> -5.94
* D197R -> -6.73
* G201L -> -7.31
* G201M -> -5.94
* G186* -> -7.21
* G194Q -> -5.65
* L189V -> -2.16
* D197C -> -0.89
* R190E -> -5.30
* R190V -> -5.14
* G201R -> -7.16
* R195S -> -6.39
* R190D -> -3.71
* G192I -> -5.13
* A187F -> -5.16
* L196V -> -2.29
* S191R -> -4.96
* R190G -> -3.61
* G201N -> -5.24
* D197Q -> -5.27
* P198Y -> -6.84
* A187M -> -5.04
* G194I -> -5.78
* E193W -> -5.21
* Y199E -> -4.75

Data from the supplement of Ni et al. 2025, doi:10.1038/s41467-025-63602-z.